Experimental data: ChEMBL document CHEMBL1800071, “Switching reversibility to irreversibility in glycogen synthase kinase 3 inhibitors: clues for specific design of new compounds” (J Med Chem, 2011)

Protein sequences, listed by entry. Tags and fused reporters are not part of them.
UniProt P00520, whole entry, looked up: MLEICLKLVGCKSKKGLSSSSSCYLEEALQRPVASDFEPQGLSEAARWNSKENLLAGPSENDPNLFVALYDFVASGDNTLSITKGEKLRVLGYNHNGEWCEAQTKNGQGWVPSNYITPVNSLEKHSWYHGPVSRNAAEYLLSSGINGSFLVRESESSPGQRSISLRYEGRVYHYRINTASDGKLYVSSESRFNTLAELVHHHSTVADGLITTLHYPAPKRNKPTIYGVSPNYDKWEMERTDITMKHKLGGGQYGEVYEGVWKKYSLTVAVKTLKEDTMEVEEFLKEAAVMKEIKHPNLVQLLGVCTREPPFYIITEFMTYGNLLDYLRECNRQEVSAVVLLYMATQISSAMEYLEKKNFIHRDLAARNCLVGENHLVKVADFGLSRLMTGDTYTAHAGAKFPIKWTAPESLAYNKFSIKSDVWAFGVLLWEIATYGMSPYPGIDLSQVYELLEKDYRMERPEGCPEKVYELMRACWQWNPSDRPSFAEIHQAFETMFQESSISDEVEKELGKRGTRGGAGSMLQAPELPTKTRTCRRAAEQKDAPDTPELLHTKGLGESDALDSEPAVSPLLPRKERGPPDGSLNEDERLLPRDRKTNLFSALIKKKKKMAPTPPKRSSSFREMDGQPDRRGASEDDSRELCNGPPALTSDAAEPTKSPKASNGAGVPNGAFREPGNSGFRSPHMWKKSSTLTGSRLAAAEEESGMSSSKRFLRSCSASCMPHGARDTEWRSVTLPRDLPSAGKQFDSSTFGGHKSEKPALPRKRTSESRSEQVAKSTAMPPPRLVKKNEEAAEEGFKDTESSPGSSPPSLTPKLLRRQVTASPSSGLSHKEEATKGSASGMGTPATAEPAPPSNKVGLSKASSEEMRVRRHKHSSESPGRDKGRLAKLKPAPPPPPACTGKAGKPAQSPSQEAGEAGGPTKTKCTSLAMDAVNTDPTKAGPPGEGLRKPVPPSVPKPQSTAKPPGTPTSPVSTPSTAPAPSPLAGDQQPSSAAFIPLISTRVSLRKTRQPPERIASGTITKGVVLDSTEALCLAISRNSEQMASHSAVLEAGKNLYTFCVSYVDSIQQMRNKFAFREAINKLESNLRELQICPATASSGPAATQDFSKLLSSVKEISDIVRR
UniProt P63086, whole entry, looked up: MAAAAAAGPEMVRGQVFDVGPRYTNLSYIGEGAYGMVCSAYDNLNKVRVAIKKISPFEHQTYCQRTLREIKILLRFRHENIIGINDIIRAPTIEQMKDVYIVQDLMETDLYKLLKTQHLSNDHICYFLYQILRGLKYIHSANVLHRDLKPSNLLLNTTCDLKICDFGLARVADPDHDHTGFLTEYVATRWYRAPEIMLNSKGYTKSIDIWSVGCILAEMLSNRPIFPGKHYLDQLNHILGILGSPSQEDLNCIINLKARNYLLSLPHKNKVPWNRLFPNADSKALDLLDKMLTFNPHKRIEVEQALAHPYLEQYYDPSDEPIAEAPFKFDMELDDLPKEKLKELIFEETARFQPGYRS

How the values were obtained:
[1] = target: Tyrosine-protein kinase ABL1 (Mus musculus) (UniProt P00520); test: Inhibition of mouse recombinant Abl expressed in Escherichia coli assessed as phosphopoly Gt formation using poly Gt as substrate at 10 uM by fluorescence polarization method
[2] = target: Mitogen-activated protein kinase 1 (Rattus norvegicus) (UniProt P63086); test: Inhibition of rat recombinant ERK42 expressed in Escherichia coli using MBP as substrate and [gamma-33P]ATP at 10 uM by scintillation counting
[3] = target: Dual specificity mitogen-activated protein kinase kinase 1 (Oryctolagus cuniculus) (UniProt P29678); test: Inhibition of rabbit recombinant MEK1 expressed in Escherichia coli using inactivated MAP kinase as substrate and [gamma-33P]ATP at 10 uM by scintillation counting
Rattus norvegicus = organism: Rattus norvegicus; test: Displacement of [125I]-alpha-bungarotoxin from alpha-BGTX-sensitive neuronal nicotinic receptor in rat cerebral cortex at 10 uM; type: tissue-based

Measured: inhibition

Cc1ccc(C(=O)CBr)cc1
< 10%: [1] | [2] | [3] | Rattus norvegicus
